Experimental data as given in doi:10.1101/2021.03.25.436940.

Tested on: VirE2 (Agrobacterium tumefaciens)
Assay: EMSA
Conditions: 5 mM Mg2+

GCGGTGGAAGTAGCAACAGCGGTTCTAGCGGCAGCGGCG [39-nt experimental oligo (ssDNA)]
binds: binding result | binding result (GSH added, no GSTU5, no significant difference to VirE2 alone) | binding result (OsGSTU5 added, no GSH, no significant difference to VirE2 alone)

Construct, isoform or probe ends are uncertain for at least one entry.
